Measured values from several laboratories, pooled; numbers as filed in NIAID ChemDB.

All rows: whole-cell or culture tests; species: Mycobacterium tuberculosis

MIC bound comes from a single tested concentration. ECn: concentration that inhibits the pathogen or its effect by n%. For "inactive" no cut-off is given. Lines come from different laboratories, so protocols vary. Blank or dashed fields: not listed here. Inhibition is in % at the dose shown (toxicity tests: loss of growth or viability). A number after MIC or MFC names an inhibition level or a share of isolates.

compound	cell line	conditions	strain or isolate	dose	read by	read-out	mutations	value
CC(C)n1[nH]c(=O)c2c1NC(=O)CSC2c1ccccc1			Clinical isolate		resazurin	MIC		4 µg/mL
COC(=O)c1cccc2oc3ccc([N+](=O)[O-])cc3c(=O)c12			H37Rv	4 µg/mL		inhibition		inactive
CC(=O)Oc1ccccc1C(=O)Nc1ncc([N+](=O)[O-])s1			LAM spoligotype 42		visual reading	MIC		18.7 µg/mL
O=C(Cc1ccc(Cl)cc1)N/N=C/c1ccc([N+](=O)[O-])s1			H37Rv	12.5 µg/mL	BACTEC	inhibition		100%
O=C(O)c1cccc2c(=O)c3cc([N+](=O)[O-])ccc3oc12			H37Rv	32 µg/mL		inhibition		inactive
CC(=O)c1ccc(N2CCN(C(=O)c3cccc(Cl)c3)CC2)s1			BioA underexpression strain		turbidity	MIC90		3.8 µM
NC(=O)c1ccc[n+](CCO)c1.[Cl-]			H37Rv		BACTEC	MIC		≥12.5 µg/mL
FC(F)(F)c1ccc(-n2c(=S)oc3ccc(Cl)cc3c2=S)cc1		14 d	My 331/88			MIC		4 µM
COC(=O)c1ccc2c(=O)c3ccccc3oc2c1C(=O)OC			H37Rv	2 µg/mL		inhibition		inactive
COc1ccc(C(=O)NN)cc1						MIC		40 µg/mL
CC(=O)Nc1cccc2cccnc12			H37Rv			MIC		>6.25 µg/mL
COC(=O)c1c([N+](=O)[O-])ccc2oc3ccc([N+](=O)[O-])cc3c(=O)c12			H37Rv	16 µg/mL		inhibition		inactive
O=c1oc2ccc(Br)cc2c(=S)n1-c1cccc(Cl)c1		14 d	My 331/88			MIC		0.5 µM
O=[N+]([O-])c1cccc2c(C3CCCCC3)cc(C3CCCCC3)nc12			H37Rv	6.25 µg/mL		inhibition		99%
NNC(=O)c1ccc(N)cc1O						MIC		10 µg/mL
CN(C)P1(=O)N(c2ccc(Cl)cc2)P(=O)(N(C)C)N1c1ccc(Cl)cc1			H37Rv		BACTEC	MIC bound		>12.5 µg/mL
COc1ccc(OCC(=O)Nc2nonc2-c2ccc(OC)c(OC)c2)cc1			Clinical isolate		resazurin	MIC		4 µg/mL
O=C(NNCc1ccccc1)c1ccncc1			Ethionamide-resistant			MIC		>6.25 µg/mL
Cc1c([N+](=O)[O-])ccc2oc3ccccc3c(=O)c12			H37Rv	16 µg/mL		inhibition		inactive
CO[C@H]1/C=C/O[C@@]2(C)Oc3c(C)c(O)c4c(=O)c(c5oc6cc(N7CCN(CC(C)C)CC7)cc(=O)c6nc5c4c3=C2O)NC(=O)/C(C)=C\C=C\[C@H](C)[C@H](O)[C@@H](C)[C@@H](O)[C@@H](C)[C@H](OC(C)=O)[C@@H]1C			9 (rifampicin-resistant)			MIC		4 µg/mL
COCCNC(=O)C1C(=O)N(CCOC)C(=O)/C1=N/N			H37Rv		BACTEC	MIC bound		>12.8 µg/mL
CC(=O)c1cc([N+](=O)[O-])c2ncccc2c1C1CCCC1			H37Rv			MIC		>6.25 µg/mL
Cc1cc(C)c2c(c1)C(O)(N1CCCC(C)C1)C(=O)N2			Clinical isolate		resazurin	MIC		16 µg/mL
O=C(O)c1cc(=O)[nH]c(=O)[nH]1			H37Rv	128 µg/mL	BACTEC	inhibition		66%
CC(=O)NC[C@H]1CN(c2ccc(N3CCOCC3)c(F)c2)C(=O)O1			Clinical isolate BRF 45		resazurin	MIC	INH RIF resistant	0.25 µg/mL
C[C@H]1O[C@@H](c2ccc3c(c2O)C(=O)C2=C(C3=O)[C@@]3(O)C(=O)C[C@](C)(O)C[C@@]3(O)C=C2)C[C@@H](O)[C@@H]1O			H37Rv	12.5 µg/mL	BACTEC	inhibition		49%
CC(NNC(=O)c1ccncc1)c1cccc(C(F)(F)F)c1			Thiacetazone-resistant			MIC		>50 µg/mL
CC1=NN(C(=O)c2ccncc2)C(=O)C1N=Nc1ccc(C)c([N+](=O)[O-])c1			H37Rv		BACTEC	MIC		≥12.8 µg/mL
Cc1noc(-c2ccc(N3CCN(C(=O)c4cccc(Cl)c4)CC3)cc2)n1			Wild type without biotin		turbidity	MIC50		>50 µM
O=C(c1ccc(Br)cc1)c1cn(-c2ccccc2)nn1			H37Rv	12.5 µg/mL		inhibition		19%
Cc1cc(=O)oc2c1ccc1occc(=O)c12			H37Rv	12.5 µg/mL	BACTEC	inhibition		18%
CCOC(=O)c1cn(-c2ccccc2)nn1			H37Rv			MIC		>12.5 µg/mL
COc1c(CCC(C)C)c(=O)cc2oc3cc(=O)/c(=C(\C)O)c(CCC(C)C)c3c(O)c12			H37Ra		resazurin	MIC		50 µg/mL
Brc1ccccc1-c1nnc2sc(-c3ccncc3)nn12			Clinical isolate		resazurin	MIC		8 µg/mL
O=c1nc2n(CC(O)C(O)C(O)C(O)CO)c3ccc(Cl)cc3nc-2c(=O)[nH]1			H37Rv		BACTEC	MIC bound		>12.5 µg/mL
CCOC(=O)c1cn[nH]n1			H37Rv			MIC		>12.5 µg/mL
O=S1Nc2ccccc2[C@H]2[C@@H]1[C@H]1O[C@@H]2c2ccccc21			H37Rv		BACTEC	MIC bound		≤12.5 µg/mL
S=c1oc2ccc(Br)cc2c(=S)n1-c1ccc(Cl)cc1		14 d	My 331/88			MIC		1 µM
CO[C@H]1/C=C/O[C@@]2(C)Oc3c(C)c(O)c4c(O)c(c(/C=N/N5CCN(C)CC5)c(O)c4c3C2=O)NC(=O)/C(C)=C\C=C\[C@H](C)[C@H](O)[C@@H](C)[C@@H](O)[C@@H](C)[C@H](OC(C)=O)[C@@H]1C			H37Rv		resazurin / absorbance	MIC		0.001 µg/mL
Cn1nnnc1-c1ccc(N2CCN(C(=O)c3cccc(Cl)c3)CC2)cc1			BioA underexpression strain		turbidity	MIC50		>50 µM
O=C(N/N=C/c1cccc(C(F)(F)F)c1)c1ccncc1	Macrophages	inside macrophages	Erdman		colony count	EC50		<0.047 µg/mL
Cc1ccc2oc(=O)n(-c3ccc(Cl)c(Cl)c3)c(=S)c2c1		14 d	My 331/88			MIC		0.5 µM
C=C(Br)CN(CC(=C)Br)NC(C)=O			H37Rv		BACTEC	MIC		≥12.5 µg/mL
CC(C)C(=O)c1cn(-c2cccc3ccccc23)nn1			H37Rv	12.5 µg/mL		inhibition		0%
NNC(=O)c1ccc(NS(=O)(=O)c2ccccc2)cc1						MIC		>40 µg/mL
CCCC(=O)N1CCN(c2ccc(C(C)=O)cc2)CC1			BioA underexpression strain		turbidity	MIC50		>50 µM
O=C(CCSCCC(=O)N/N=C(\CO)C(O)C(O)C(O)CO)N/N=C(\CO)C(O)C(O)C(O)CO			H37Rv		BACTEC	MIC		≥12.5 µg/mL
O=C(N/N=C/c1ccccc1[N+](=O)[O-])c1ccccc1Cl						MIC		200 µg/mL
CC(=O)Nc1ccc(/C=N/NC(N)=S)cc1			Isolate B drug-susceptible			MBC		30 µg/mL
CC(=O)c1cn(-c2ccccc2)nn1			H37Rv			MIC		>12.5 µg/mL
O=C(N/N=C/c1ccccc1)c1ccc(Nc2ccccc2)cc1						MIC		>40 µg/mL
Cc1ccc(-n2c(=S)oc3ccc(Br)cc3c2=S)cc1		21 d	My 331/88			MIC		1 µM
Cc1nc(N)sc1N=Nc1cc(Br)ccc1Br			H37Rv	6.25 µg/mL	BACTEC	inhibition		0%
CCCC(=O)Oc1cc2oc3cc(OC(=O)CCC)c(OC)c(CCC(C)C)c3c(=O)c2c(O)c1CCC(C)C			H37Ra		resazurin	MIC		25 µg/mL
O=C(Nc1ccc(Cl)cc1)Nc1nnc2nc(C(C(=O)c3ccc(F)cc3)c3nc4nnc(NC(=O)Nc5ccc(Cl)cc5)n4[nH]c3=O)c(=O)[nH]n12			H37Rv	12.5 µg/mL	BACTEC	inhibition		46%
NC[C@H]1O[C@H](O[C@H]2[C@H](O)[C@@H](O[C@H]3O[C@H](CO)[C@@H](O)[C@H](N)[C@H]3O)[C@H](N)C[C@@H]2N)[C@H](O)[C@@H](O)[C@@H]1O			H37Ra		resazurin	MIC		2.5 µg/mL
NNC(=O)c1ccncc1			Clinical isolate 57		resazurin / absorbance	MIC		0.03 µg/mL
CCCOc1cc2oc3cc(O)c(CCC(C)C)c(O)c3c(=O)c2c(CCC(C)C)c1OC			M-3		resazurin	MIC	MDR	3.12 µg/mL
NS(=O)(=O)c1ccc(NC2=CC(=O)C(=O)c3ccc(S(=O)(=O)O)cc32)cc1			H37Rv	12.5 µg/mL	BACTEC	inhibition		13%
COc1ccc(/C=N\NS(=O)(=O)c2ccc(NC(C)=O)cc2)cc1						MIC		>200 µg/mL
OC[C@@H](O)[C@@H](O[C@@H]1O[C@H](CO)[C@@H](O)[C@H](O)[C@H]1O)[C@H](O)C(/C=N/Nc1ccccc1)=N/Nc1ccccc1			H37Rv	6.25 µg/mL	resazurin	inhibition		19%
O=C(c1cn(-c2ccc(Cl)cc2)nn1)c1cccs1			H37Rv	12.5 µg/mL		inhibition		0%
C=C(C)[C@@H]1CC[C@]2(C)[C@H]3CC[C@@H]4[C@@]5(C)[C@@H]6O[C@@H](OC6=O)C(C)(C)[C@@H]5CC[C@@]4(C)[C@]3(C)CC[C@@H]12			H37Rv		BACTEC	MIC bound		>12.5 µg/mL
CC(=O)c1cc([N+](=O)[O-])c2nc(C(C)(C)C)ccc2c1C(C)(C)C			H37Rv			MIC		>6.25 µg/mL
O=C(NCCO)N1c2ccccc2Sc2ccccc21			18b		resazurin	MIC		8 µg/mL
O=C(N/N=C/c1ccccc1)c1ccc(NS(=O)(=O)c2ccccc2)cc1						MIC		>200 µg/mL
CCCCCCCOc1c(C(C)=O)cc([N+](=O)[O-])c2nccc(CC)c12			H37Rv	6.25 µg/mL		inhibition		99%
O=C(O)c1c[nH]c2c(ccc3[nH]cc(C(=O)O)c(=O)c32)c1=O			H37Rv	12.5 µg/mL	BACTEC	inhibition		34%
COc1c(O)cc2oc3cc(O)c(CCC(C)C)c(O)c3c(=O)c2c1CCC(C)C			M6		resazurin	MIC	MDR	1.56 µg/mL
CC1(C)N=C(c2ccccc2)C(=O)N1CC(=O)Nc1ccc2c(c1)OCO2			Clinical isolate		resazurin	MIC		16 µg/mL
CC(NNC(=O)c1ccncc1)c1ccc(Cl)c(Cl)c1			H37Rv (rifampin-resistant)			MIC		1.96 µg/mL
CC(=O)c1cc(N)c2nc(C(C)(C)C)ccc2c1			H37Rv			MIC		>6.25 µg/mL
CCOC(=O)C1C2C=CC3CC(=O)N(C(C)c4ccccc4)C31O2			Clinical isolate		resazurin	MIC		16 µg/mL
O=C1CN(c2ccc(Cl)cc2)C(=O)CN1/N=C/c1ccco1			H37Rv		BACTEC	MIC bound		>12.5 µg/mL
O=c1[nH]n(-c2ccccc2)c(=O)c2ccccc12						MIC		>200 µg/mL
O=C(N/N=C/c1cccc(F)c1)c1ccncc1			Ethambutol-resistant			MIC		≤0.1 µg/mL
CCCc1ccc2oc(-c3ccc(O)c(OC)c3)c(C)c2c1			H37Rv		resazurin / absorbance	MIC		7.8 µg/mL
CCOc1cc2oc3cc(O)c(CCC(C)C)c(O)c3c(=O)c2c(CCC(C)C)c1OC			M6		resazurin	MIC		1.56 µg/mL
Fc1cccc(-n2c(=S)oc3ccc(F)cc3c2=S)c1		21 d	My 331/88			MIC		16 µM
COC(=O)c1ccc2oc3c(C(=O)OC)cc([N+](=O)[O-])cc3c(=O)c2c1			H37Rv	4 µg/mL		inhibition		inactive
O=C(c1cccc(Cl)c1)N1CCN(c2ccc([N+](=O)[O-])cc2)CC1			BioA overexpression strain		turbidity	MIC90		>50 µM
CCC(C)C(=O)c1cn(-c2ccccc2)nn1			H37Rv			MIC		>12.5 µg/mL
O=C(O)c1cccc2oc3ccc([N+](=O)[O-])cc3c(=O)c12			H37Rv	32 µg/mL		inhibition		inactive
CC(=O)c1ccc(N2CCN(C(=O)c3cccc(Cl)c3)CC2)cc1			BioA underexpression strain		turbidity	MIC90		2.3 µM
CC(=O)Nc1ccc(/C=N/NC(=O)c2ccccc2)cc1						MIC		10 µg/mL
O=C(NNCc1cccc(C(F)(F)F)c1)c1ccncc1			H37Rv			MIC		0.2 µg/mL
CCO/C=C1\N=C(c2ccccc2Br)OC1=O			H37Rv		BACTEC	MIC bound		>12.5 µg/mL
CCCc1ccc2oc(-c3ccc4c(c3)OCO4)c(C)c2c1			H37Rv		resazurin / absorbance	MIC		250 µg/mL
O=c1oc2ccc(Br)cc2c(=S)n1-c1cccc(F)c1		21 d	My 331/88			MIC		2 µM

For reference, 9 entries again:

compound | cell line | conditions | strain or isolate | dose | read by | read-out | mutations | value
FC(F)(F)c1ccc(-n2c(=S)oc3ccc(Cl)cc3c2=S)cc1 |  | 14 d | My 331/88 |  |  | MIC |  | 4 µM
Cc1c([N+](=O)[O-])ccc2oc3ccccc3c(=O)c12 |  |  | H37Rv | 16 µg/mL |  | inhibition |  | inactive
CO[C@H]1/C=C/O[C@@]2(C)Oc3c(C)c(O)c4c(=O)c(c5oc6cc(N7CCN(CC(C)C)CC7)cc(=O)c6nc5c4c3=C2O)NC(=O)/C(C)=C\C=C\[C@H](C)[C@H](O)[C@@H](C)[C@@H](O)[C@@H](C)[C@H](OC(C)=O)[C@@H]1C |  |  | 9 (rifampicin-resistant) |  |  | MIC |  | 4 µg/mL
COC(=O)c1ccc2oc3c(C(=O)OC)cc([N+](=O)[O-])cc3c(=O)c2c1 |  |  | H37Rv | 4 µg/mL |  | inhibition |  | inactive
COC(=O)c1cccc2oc3ccc([N+](=O)[O-])cc3c(=O)c12 |  |  | H37Rv | 4 µg/mL |  | inhibition |  | inactive
O=C(N/N=C/c1cccc(C(F)(F)F)c1)c1ccncc1 | Macrophages | inside macrophages | Erdman |  | colony count | EC50 |  | <0.047 µg/mL
Cn1nnnc1-c1ccc(N2CCN(C(=O)c3cccc(Cl)c3)CC2)cc1 |  |  | BioA underexpression strain |  | turbidity | MIC50 |  | >50 µM
NS(=O)(=O)c1ccc(NC2=CC(=O)C(=O)c3ccc(S(=O)(=O)O)cc32)cc1 |  |  | H37Rv | 12.5 µg/mL | BACTEC | inhibition |  | 13%
OC[C@@H](O)[C@@H](O[C@@H]1O[C@H](CO)[C@@H](O)[C@H](O)[C@H]1O)[C@H](O)C(/C=N/Nc1ccccc1)=N/Nc1ccccc1 |  |  | H37Rv | 6.25 µg/mL | resazurin | inhibition |  | 19%